Results of unrelated studies side by side (data: NIAID ChemDB).

All rows: tests in culture; species: HIV-1; cell line: CEM + CEM-SS; read-out: EC50

Blank or dashed fields: not listed here. Rows are shuffled and stem from different studies. ECn: concentration that inhibits the pathogen or its effect by n%. Two numbers with a dash give a range or band.

structure	strain	changes	read by	result
Nc1ccn([C@H]2C[C@H]3OC[C@@H](O)[C@H]3O2)c(=O)n1				>100 µM
O=C(O)C1CC(C(=O)O)SS1	RF		XTT	>200 µM
Cc1cn(CCCCB(O)O)c(=O)[nH]c1=O	IIIB		plaque count	82 µM
CCOC(=O)N1CCC(=C(c2cc(Cl)c(OC)c(C(=O)O)c2)c2cc(Cl)c(OC)c(C(=O)O)c2)CC1	RF			64.9 µM
Cc1nc(CCCCCCC(=O)c2ccccc2)n2nc(Cl)ccc12	Nevirapine-resistant		RT activity	>10 µM
CN(C)C1=C(C#N)/C(=C2/C(C#N)=C(N(C)C)N(c3ccc([N+](=O)[O-])cc3)c3c2n(C)c2ccccc32)c2c(c3ccccc3n2C)N1c1ccc([N+](=O)[O-])cc1	6R AZT-resistant (RT D67N K70R T215Y K219Q)	RT-D67N K70R T215Y K219Q	cytopathic effect / XTT	12–16.6 µM
COc1c(Cl)cc(C(=CCC[C@@H](C)[C@H]2CCC3C4C(C[C@H](O)[C@@]32C)[C@@]2(C)CC[C@@H](O)C[C@H]2C[C@H]4O)c2cc(Cl)c(OC)c(C(=O)O)c2)cc1C(=O)O	RF		syncytia	53.1 µM
Nc1ncnc2c1ncn2[C@H]1C[C@]12C[C@H]2CO	RF			>100 µM
Cc1c(Br)c(=O)[nH]c(=O)n1COCCOc1ccc(Cl)cc1			cytopathic effect	7.2 µM
Cn1c(=O)c2c(ncn2CCOc2ccc([N+](=O)[O-])cc2Cc2cc([N+](=O)[O-])ccc2OCCn2cnc3c2c(=O)n(C)c(=O)n3C)n(C)c1=O	RF		cytopathic effect / XTT	>25 µg/mL
Nc1nc2c(ncn2[C@H]2C[C@]23C[C@H]3CO)c(=O)[nH]1				>100 µM
CCOC(=O)N1CCC(=C(c2cc(C)c(OC)c(C(=O)OC)c2)c2cc(C)c(OC)c(C(=O)OC)c2)CC1	RF			1.16 µM
C[C@H](CCC=C(c1cc(Cl)c(O)c(C(=O)O)c1)c1cc(Cl)c(O)c(C(=O)O)c1)[C@H]1CC[C@H]2[C@@H]3CC[C@@H]4CCCC[C@]4(C)[C@H]3CC[C@]12C	RF		syncytia	28 µM
O[C@@H]1CSSC[C@H]1O	RF		XTT	>200 µM
Cc1ccc(OCCOCn2cc(Br)c(=O)[nH]c2=O)cc1			cytopathic effect	69.1 µM
CC(C)=CCOc1cc(NC(=S)c2ccoc2C)ccc1Cl	NL4-3	RT-L100I	p24	0.4 µM
CCC(C)C(NC(=O)c1ccccc1SSc1ccccc1C(=O)NC(C(=O)O)C(C)CC)C(=O)O	N119 (nevirapine-resistant)		cytopathic effect / XTT	3.5 µM
C[C@H](CC[C@H](C)C(C)(C)C)[C@H]1CC[C@H]2[C@@H]3C[C@H](OS(=O)(=O)O)[C@H]4C[C@H](OS(=O)(=O)O)[C@@H](OS(=O)(=O)O)C[C@]4(C)[C@H]3CC[C@]12C	RF		cytopathic effect / XTT	6 µM
C[C@]1(O)CCN(Cc2ccccc2)C[C@@H]1O	BRU		cytopathic effect	>100 µg/mL
CCCCCCCCO[C@H]1N([C@H]2C[C@H](N=[N+]=[N-])[C@@H](CO)O2)C(=O)NC(=O)[C@]1(C)Cl	RF		cytopathic effect / XTT	>27.5 µM
CC(=O)O[C@@H]1CSS(=O)(=O)C[C@H]1OC(C)=O	RF		XTT	>19 µM
COc1ccc([C@@H]2c3ccccc3S(=O)(=O)N2C)cc1	RF		cytopathic effect / XTT	>200 µM
CC[C@H](C)[C@H]([NH3+])C(=O)NNc1ccn([C@H]2CC[C@@H](CO)O2)c(=O)n1				>100 µM
Nc1ncnc2c1ncn2[C@H]1C[C@@]12C[C@H]2CO				>100 µM
Oc1ccc2cc1Cc1cc(ccc1O)N=Cc1cccc(n1)C=Nc1ccc(O)c(c1)Cc1cc(ccc1O)N=Cc1cccc(n1)C=N2	RF		cytopathic effect / XTT	>25 µg/mL
O[C@H]1CCNC[C@@H]1O	BRU		cytopathic effect	2.7 µg/mL
CN1C(=O)c2ccccc2C1(N)c1ccccc1	RF		cytopathic effect / XTT	10 µM
O=S1C[C@@H](O)[C@H](O)CS1	RF		XTT	>59 µM
COc1ccc([C@H]2c3ccccc3S(=O)(=O)N2C)cc1	RF		cytopathic effect / XTT	>200 µM
Cc1cn([C@H]2C=C[C@@H](CO)O2)c(=O)[nH]c1=O	Nevirapine-resistant		RT activity	0.18 µM
FC(F)(Sc1ncccn1)c1nc2ccccc2o1	RF		cytopathic effect / XTT	3.14 µM
O=S1CCCCS1	RF		p24	>26 µM
FC(F)(Sc1ccccc1)c1nc2ccccc2o1	RF		cytopathic effect / XTT	36 µM
COc1cc(-c2ccc(N=Nc3ccc4c(S(=O)(=O)O)cc(S(=O)(=O)O)c(N)c4c3O)c(OC)c2)ccc1N=Nc1ccc2c(S(=O)(=O)O)cc(S(=O)(=O)O)c(N)c2c1O	SKI		RT activity	1.8 µM
Cc1cn(CCCCCCCCCCCCOc2ccc3cc2Cc2cc(ccc2OCCCCCCCCCCCCn2cc(C)c(=O)[nH]c2=O)N=Cc2cccc(n2)C=Nc2ccc(OCCCCCCCCCCCCn4cc(C)c(=O)[nH]c4=O)c(c2)Cc2cc(ccc2OCCCCCCCCCCCCn2cc(C)c(=O)[nH]c2=O)N=Cc2cccc(n2)C=N3)c(=O)[nH]c1=O	RF		cytopathic effect / XTT	>25 µg/mL
CCO[C@@H]1N([C@H]2C[C@H](N=[N+]=[N-])[C@@H](CO)O2)C(=O)NC(=O)[C@@]1(C)Cl	RF		cytopathic effect / XTT	>200 µM
Cc1ccc(OCCOCn2c(C)c(Br)c(=O)[nH]c2=O)cc1			cytopathic effect	7.8 µM
CCO[C@H]1N([C@H]2C[C@H](N=[N+]=[N-])[C@@H](CO)O2)C(=O)NC(=O)[C@]1(C)Cl	RF		cytopathic effect / XTT	>200 µM
Cc1cc(C)cc(Sc2cc(CCCO)[nH]c(=O)c2[N+](=O)[O-])c1	LAI		cytopathic effect	0.8 µM
COC(=O)CCCC(=O)N1CCC(=C(c2cc(C)c(OC)c(C(=O)OC)c2)c2cc(C)c(OC)c(C(=O)OC)c2)CC1	RF			1.04 µM
CC(=O)O[C@H]1CSSC[C@H]1OC(C)=O	RF		XTT	>200 µM
CN1CC[C@H](O)[C@@H](O)C1	BRU		cytopathic effect	>100 µg/mL
Nc1ncnc2c1ncn2[C@H]1C[C@@]12C[C@@H]2CO	RF			>100 µM
CCCCCCCCCCCCCCCCO[C@H]1N([C@H]2C[C@H](N=[N+]=[N-])[C@@H](CO)O2)C(=O)NC(=O)[C@]1(C)Br	RF		cytopathic effect / XTT	>11 µM
Nc1ncnc2c1ncn2[C@H]1C[C@]12C[C@@H]2CO	RF			>100 µM
O=c1[nH]c(=O)n([C@H]2C=C[C@@H](CO)O2)cc1CO	LAI		RT activity	0.1 µM
CC(=O)OCC1(COC(C)=O)CSS(=O)C1	RF		XTT	>143 µM
Cc1nc(CCCCCCC(=O)c2ccccc2)n2nc(NCCCCCCNCc3cn([C@H]4C=C[C@@H](CO)O4)c(=O)[nH]c3=O)ccc12	Nevirapine-resistant		RT activity	0.083 µM
CC[C@H](C)[C@H](NC(=O)OC(C)(C)C)C(=O)NNc1ccn([C@H]2CC[C@@H](CO)O2)c(=O)n1				>100 µM
CCN1CC[C@H](O)[C@@H](O)C1	BRU		cytopathic effect	>100 µg/mL
Cc1nc(CCCCCCC(=O)c2ccccc2)n2nc(NCCCCCCCCCCNCc3cn([C@H]4C=C[C@@H](CO)O4)c(=O)[nH]c3=O)ccc12	LAI		RT activity	0.025 µM
Cc1cn(CCCCO[C@H]2C=C[C@@H](CO)O2)c(=O)[nH]c1=O	LAI		RT activity	30 µg/mL
Cc1c(C)n(COCCOc2ccc(Cl)cc2)c(=O)[nH]c1=O			cytopathic effect	>100 µM
CCCCN1CC[C@H](O)[C@@H](O)C1	BRU		cytopathic effect	>100 µg/mL
CCOC(=O)N1CCC(=C(c2cc(Cl)c(OC)c(C(=O)OC)c2)c2cc(Cl)c(OC)c(C(=O)OC)c2)CC1	RF			1.26 µM

Repeating the final 6 entries:

structure	strain	changes	read by	result
CCN1CC[C@H](O)[C@@H](O)C1	BRU		cytopathic effect	>100 µg/mL
Cc1nc(CCCCCCC(=O)c2ccccc2)n2nc(NCCCCCCCCCCNCc3cn([C@H]4C=C[C@@H](CO)O4)c(=O)[nH]c3=O)ccc12	LAI		RT activity	0.025 µM
Cc1cn(CCCCO[C@H]2C=C[C@@H](CO)O2)c(=O)[nH]c1=O	LAI		RT activity	30 µg/mL
Cc1c(C)n(COCCOc2ccc(Cl)cc2)c(=O)[nH]c1=O			cytopathic effect	>100 µM
CCCCN1CC[C@H](O)[C@@H](O)C1	BRU		cytopathic effect	>100 µg/mL
CCOC(=O)N1CCC(=C(c2cc(Cl)c(OC)c(C(=O)OC)c2)c2cc(Cl)c(OC)c(C(=O)OC)c2)CC1	RF			1.26 µM